# Screening data, single-dose tests

The values are deposited in ChEMBL (CHEMBL3988442, “University of Dundee, Small-Polar-MMV Screening Library” (2021)).

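Growth of Mycobacterium tuberculosis over 3 days (7H9 medium with glucose and tyloxapol); the read-out is not stated. Compounds at 500 µM. Higher reads as more growth inhibition (inferred: compounds with an IC50 in retests scored well above the rest). Of about 18,000 compounds tested this way, about 1,400 (7.9%) reached 50% or more in at least one test.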

Results are given as percent effect.
The record does not define 0% and 100%; most values in the screen are far below 50% and negative numbers occur (in some assays of this library far below -100).
The entries come from a sample that favours strong results.

structure	Percent Effect
COCCCOc1cc(C)ccc1CN	-4.422
CN(C)C(CN)c1cccc(F)c1 (centres unmarked)	56.45
Cc1cnc(C(=O)N(Cc2cnn(C)c2)C2CC2)cn1	2.139
CC(C)[C@H](N)C(=O)N1CCN(c2ccncc2Cl)CC1	7.387
CCn1ncnc1C(C)NC(=O)Cc1ccncc1 (centres unmarked)	-5.505
Nc1nnc(SCc2cn3ccccc3n2)s1	-0.8762
COC(=O)c1oc(CN2CCC(CO)CC2)cc1C	-6.487
CN(CCCO)C1CCN(C(=O)Nc2ccsc2)CC1	6.588
CSCc1cc(F)ccc1CNC(=O)c1cn[nH]c1C	57.98
Cc1ccc(S(=O)(=O)NCC(C)(C)N)c2cccnc12	21.4
COCC1(C(=O)N[C@@H]2CCOC[C@H]2O)CC1	-3.941
COc1cc(C(=O)NC(C)CC#N)ccc1C (centres unmarked)	74.61
O=C1CN(Cc2nc3ccsc3c(=O)[nH]2)CCN1	3.395
CCS(=O)(=O)CCNC(=O)c1cncnc1C	2.887
NC(=O)NCC(=O)NCc1ccccc1-n1ccnc1	6.962
CN1CCN(c2ccnc(SCC(N)=O)n2)CC1	90.51
CC(C)(C)C(=O)NC1CCS(=O)(=O)c2ccccc21 (centres unmarked)	8.277
CNC(=O)CSCc1ccc2ccccc2n1	-9.011
CN(CCCOc1ccccc1)CC(=O)NCCC#N	8.784
CC(Cn1cncn1)NCc1ccsc1 (centres unmarked)	25.92
CN(Cc1cccs1)C(=O)CCCNC(=O)C(C)(C)C	45.37
CC(=O)c1c(C)cccc1NC(=O)CN1CCCC1=O	11.75
CCOCCC1(N)CCCC1	9.705
CN(C)C(=O)c1ccc(N)nn1	7.225
N[C@@H](CO)C(=O)N1CCC(Cc2ccc(F)cc2)CC1	53.03
COc1ccc(C(CN)N2CCOCC2)cc1OC (centres unmarked)	0.5865
O=C(CCc1ccco1)NCC(O)c1ccccc1F (centres unmarked)	30.43
O=S(=O)(c1cccnc1)N1CCOCC1	4.835
CO[C@H]1C[C@@H](O)C12CCN(C(=O)Cc1cccs1)CC2	17.04
CSCC(=O)N1CC(C(N)=O)Oc2ccccc21 (centres unmarked)	5.93
O=C(CCc1ccccn1)N[C@@H]1CCNC[C@H]1O	16.68
O=C(CNC1CC1)NC[C@H]1CCc2ccccc2O1	68.44
CC(C1CCN(C)CC1)N(C)C(=O)C1CCC1 (centres unmarked)	-1.823
CC1CCCN(CCNC(=O)CN(C)S(C)(=O)=O)C1 (centres unmarked)	-5.892
COc1ccc(C(N)CO)c2ccccc12 (centres unmarked)	59.19
Cn1c(Sc2ccc(C#N)cn2)nnc1C1CC1	19.14
COCCn1ccc(N)n1	21.86
COc1ccc(CN)cc1OC(F)F	41.01
O=C(NCC1CCCNC1)OCc1ccccc1 (centres unmarked)	20.23
CCCc1cc(CN(C)C(=O)c2cccs2)n[nH]1	69.52
CCc1nc(N2CCN(C)C(CCO)C2)ncc1C (centres unmarked)	30.18
COCc1ccc(C#N)cc1	26.8
Cc1noc(NCc2cc3ccccc3nc2O)n1	-5.32
CS(=O)(=O)NCCC(=O)NC1CCc2ccccc2C1 (centres unmarked)	24.94
COCc1cc(C)nc(SCC#N)c1C#N	4.46
COC(=O)c1ccc(NC2CCN(C)CC2)o1	-40.44
CCC1CN(C(=O)[C@H](O)c2ccccc2Cl)CCO1 (some centres unmarked)	23.18
Clc1cnn(CCN2CCCC3(CCOCC3)C2)c1	1.184
O=C(CCn1cccc1)NCc1ccco1	56.11
O=C(NC1CC1)C1CCCN1 (centres unmarked)	-3.543
COc1ccc(CN2CCC(N)C2=O)c(OC)c1 (centres unmarked)	15.28
CC1(C#N)CCCN(C(=O)CCc2cccnc2)C1 (centres unmarked)	20.3
CCn1nccc1NC(=O)c1ccccc1	3.88
CCCNCCNS(=O)(=O)CCc1cccs1	10.6
CCn1nnc2cc(C(=O)NCCCN(C)C)ccc21	13.37
COc1cccc(CCC(=O)N2CCCC2)c1	75.82
CC1(C)CC(CN)CCO1 (centres unmarked)	5.983
CC(CO)NC(=O)NCc1ccccc1 (centres unmarked)	14.55
CN(C(=O)C(CN)c1ccccc1)c1cccc(F)c1 (centres unmarked)	-6.957
CSC1(C)C(=O)Nc2c(C#N)cccc21 (centres unmarked)	9.526
Cc1nnc(NC(=O)c2ccc(C#N)cc2)s1	6.038
CCC(O)Cc1ccncc1 (centres unmarked)	0.8217
OCCCN1CCCN(Cc2ccc(F)cc2)CC1	60.35
CC(N)C(=O)N1CCN(c2ccc(C(N)=O)cc2)CC1 (centres unmarked)	8.365
CC(C)CCC(=O)NCC(=O)NCC(O)C(C)(C)C (centres unmarked)	11.95
Brc1cncc(C2CNCCO2)c1 (centres unmarked)	35.81
NCC(=O)Nc1cccc(F)c1	0.5016
COc1cc(CCN)ccc1C	54.92
Cc1ccc(F)c(CN2CC[C@H](N)C2)c1	81.63
CN1CCCN(C(=O)COc2ccccc2)CC1	12.03
COc1cc(OC)c(NC(=O)C2CCCN2)cc1F (centres unmarked)	1.581
CCOC(=O)CNC(=O)NCCc1ccc(OC)cc1	48.1
CCc1cccc2c1N(CC(N)=O)CCC2	2.017
COc1c(F)cccc1C(=O)NC(C)c1n[nH]c(C)n1 (centres unmarked)	3.846
O=S(=O)(NCC(O)CN1CCCC1)C1CCCCC1 (centres unmarked)	38.75
Cn1cc(-c2csc(N)n2)cn1	10
Cc1ccc(C(=O)N2CCOCC2CO)c(C)n1 (centres unmarked)	7.336
CO[C@H]1CNCC1NC(=O)c1cc(C(C)C)nn1C (some centres unmarked)	11.55
O=C(CN1CCN(C2CC2)CC1)NCc1ccco1	12.03
O=C(Cc1ccc(O)cc1)NC1CCNCC1	-5.731
CCOC(=O)CNc1ccc(OC)cc1	59.11
CN1CCC(C2CCN(Cc3cccnc3)C2)CC1 (centres unmarked)	-2.832
O=C(CCCc1cccs1)NC1(CCO)CCOCC1	2.801
CNCc1ccc(Cn2ccnc2)cc1	1.973
CCCn1nccc1C(=O)N1CCOC[C@@H]1CC	12.3
CC(NC(=O)C(C)(C)C)C(=O)NCc1ccccc1F (centres unmarked)	3.57
CCn1cc(S(=O)(=O)NCc2ccccc2F)cn1	27.57
Cn1cccc1C(=O)NCC(C)(O)c1cccs1 (centres unmarked)	-4.016
COCCN(C)CCCNC(=O)c1cc(C2CC2)on1	17
Cc1cc(CNC(=O)N[C@@H](C)C(=O)N(C)C)ccc1Cl	-1.708

The first 9 entries again:

structure	Percent Effect
COCCCOc1cc(C)ccc1CN	-4.422
CN(C)C(CN)c1cccc(F)c1 (centres unmarked)	56.45
Cc1cnc(C(=O)N(Cc2cnn(C)c2)C2CC2)cn1	2.139
CC(C)[C@H](N)C(=O)N1CCN(c2ccncc2Cl)CC1	7.387
CCn1ncnc1C(C)NC(=O)Cc1ccncc1 (centres unmarked)	-5.505
Nc1nnc(SCc2cn3ccccc3n2)s1	-0.8762
COC(=O)c1oc(CN2CCC(CO)CC2)cc1C	-6.487
CN(CCCO)C1CCN(C(=O)Nc2ccsc2)CC1	6.588
CSCc1cc(F)ccc1CNC(=O)c1cn[nH]c1C	57.98